Results on 2 molecules are retold here after publication PMC3840871.

In assay [1] the target is NA of A/ck/VN/NCVD-295/2009 (I223T), clade 2.3.4 (Influenza A virus, UniProt S4U1V6, I203T).
The target in assay [2] is NA of A/ck/VN/NCVD-283/2009 (I223T), clade 2.3.4 (Influenza A virus, UniProt S4U1V6, I203T).
Assay [3] deals with NA of A/ck/VN/NCVD-296/2009 (I223T), clade 2.3.4 (Influenza A virus, UniProt S4U1V6, I203T).
In assay [4] the target is NA of A/dk/VN/NCVD-712/2011 (V424I), clade 2.3.2.1 (Influenza A virus, UniProt U3N5P7, V404I).
The target in assay [5] is NA of A/dk/VN/NCVD-714/2011 (V424I), clade 2.3.2.1 (Influenza A virus, UniProt U3N5P7, V404I).

A word on the IC50: it is the point on the concentration scale where inhibition reaches its midpoint. Higher therefore signals lower potency.

On to `CC(=O)N[C@H]1[C@H]([C@H](O)[C@H](O)CO)OC(C(=O)O)=C[C@@H]1N=C(N)N`, for which the figures for the IC50 in assay [1] and in assay [2] were 0.93 nM and 0.77 nM, respectively.

With peramivir, the IC50 in assay [1] turned out to be 0.5 nM; in assay [3] it was 0.52 nM; in assay [4], 0.26 nM; in assay [2] it was 0.49 nM; in assay [5], 0.31 nM.
